Anti-infective test results gathered from many reports (values: NIAID ChemDB through PubChem).

All rows: target-level tests; organism: HIV-1; target: Protease; measure: IC50

Blank or dashed fields: not listed here. ICn: concentration for n% inhibition. Neighbouring rows are from separate reports.

SMILES | strain | read by | conditions | result
CC(C)(C)OC(=O)N[C@H]1C(=O)N(Cc2ccccc2)C[C@H]2O[C@H]2[C@@H]1c1ccccc1 |  | fluorescence |  | 19.3 µM
Cc1cn([C@@H]2C[C@@H](N=[N+]=[N-])[C@H](COC(=O)C(C)C(C)C(=O)N[C@@H](Cc3ccccc3)[C@H](O)C(=O)N3CSC[C@H]3C(=O)NC(C)(C)C)O2)c(=O)[nH]c1=O | IIIB |  |  | >5 µM
CC(C)[C@H](NC(=O)OCc1ccccc1)C(=O)N[C@@H](Cc1ccccc1)[C@H](O)[C@@H](CO)[C@H](Cc1ccccc1)NC(=O)[C@H](CC(N)=O)NC(=O)OCc1ccccc1 |  |  |  | 0.11 µM
O=C(/C=C/c1ccc(O)c2c1[C@H](C(=O)O)[C@@H](c1ccc(O)c(O)c1)O2)O[C@H](Cc1ccc(O)c(O)c1)C(=O)O |  |  |  | >100 µM
C[C@H](CC[C@H](O)C(C)(O)CO)[C@H]1CC[C@@]2(C)C3=CC[C@H]4C(C)(C)C(=O)CC[C@]4(C)C3=CC[C@]12C |  |  |  | >1000 µM
Cc1ccccc1CNC(=O)[C@@H]1CSCN1C(=O)[C@@H](O)[C@H](Cc1ccccc1)NC(=O)CC(C)(C)C(=O)O | IIIB |  |  | <5 µM
CC(=O)O[C@@H]1C(=O)C2=C(C(=O)C[C@H]3C(C)(C)[C@@H](O)CC[C@]23C)[C@]2(C)C(=O)C[C@H]([C@@H](C)CC(=O)C[C@@H](C)C(=O)O)[C@@]12C |  |  |  | 200 µM
CC(O)C(=O)[O-].CC(O)C(=O)[O-].[Ca+2] | SF2 | fluorescence |  | >1000 µM
Cc1cn([C@@H]2C[C@@H](N=[N+]=[N-])[C@H](COC(=O)C(C)(C)CC(=O)N[C@@H](Cc3ccccc3)[C@H](O)C(=O)N3CSC(C)(C)[C@H]3C(=O)NC(C)(C)C)O2)c(=O)[nH]c1=O | IIIB |  |  | >5 µM
CC(C)[C@H](NC(=O)OCc1ccccc1)C(=O)N[C@@H](Cc1ccccc1)[C@H](O)[C@H](Cc1ccccc1)NC(=O)[C@@H](NC(=O)OCC1CCCCN1C)C(C)C |  | fluorescence |  | ~0.05 µM
COC(=O)[C@@H](NC(=O)[C@@H](NC(=O)[C@H](Cc1ccccc1)CC(O)C[C@@H](Cc1ccccc1)C(=O)N[C@H](C(=O)N[C@H](C(=O)OC)C(C)C)C(C)C)C(C)C)C(C)C |  |  |  | 0.005 µM
O=C(N[C@@H](Cc1ccccc1)[C@@H](O)C[C@@H](Cc1ccccc1)C(=O)N[C@H]1c2ccccc2C[C@H]1O)O[C@H]1CCOC1 |  |  |  | 0.00006 µM
Cc1cn([C@@H]2C[C@@H](N=[N+]=[N-])[C@H](COC(=O)C(C)C(C)C(=O)N[C@@H](Cc3ccccc3)[C@H](O)C(=O)N3CSC(C)(C)[C@H]3C(=O)NC(C)(C)C)O2)c(=O)[nH]c1=O | IIIB |  |  | <5 µM
CC(C)CC(NC(=O)OCc1ccccc1)C(=O)N[C@@H](Cc1ccccc1)C(=O)C(F)(F)CCc1ccccc1 |  |  |  | 0.17 µM
CC[C@H](C)[C@H](NC(=O)CNC(=O)CSC[C@@H]1CC[N+]2=C(N[C@H](CO[Si](c3ccccc3)(c3ccccc3)C(C)(C)C)CC2)N1)C(=O)N[C@@H](CO)C(=O)N[C@@H](Cc1ccc(O)cc1)C(=O)N[C@@H](CC(N)=O)C(=O)N[C@@H](CC(C)C)C(=O)OC |  | fluorescence |  | 5 µM
CC(C)(C)OC(=O)N[C@H]1C[C@@H](O)[C@@H](O)[C@H](Cc2ccccc2)N(Cc2ccccc2)C1=O |  | fluorescence |  | 55.3 µM
[Cl][Fe][Cl] | SF2 | fluorescence |  | >1000 µM
CC(=O)NCC(=O)N[C@H](C(=O)N[C@@H](Cc1ccccc1)C(=O)C(F)(F)CCc1ccccc1)C(C)C |  |  |  | 0.0032 µM
CC(C)(C)NC(=O)[C@@H]1CN(Cc2cc3ccsc3s2)CCN1C[C@@H](O)C[C@@H](Cc1ccncc1)C(=O)N[C@H]1c2ccccc2C[C@H]1O |  |  |  | 0.00008 µM
CC(C)[C@@H](C)/C=C/[C@@H](C)[C@H]1CC[C@H]2C3=CC=C4C[C@@H](O)CC[C@]4(C)[C@H]3CC[C@]12C |  |  |  | >1000 µM
Cc1ccccc1CNC(=O)[C@@H]1CSCN1C(=O)[C@@H](O)[C@H](Cc1ccccc1)NC(=O)C(C)C(C)C(=O)OC[C@@H]1O[C@H](n2cc(C)c(=O)[nH]c2=O)C[C@H]1N=[N+]=[N-] | IIIB |  |  | <5 µM
CC(C)[C@H](NC(=O)NCc1ccccc1)C(=O)N[C@@H](Cc1ccccc1)C(O)[C@H](Cc1ccccc1)NC(=O)[C@@H](NC(=O)NCc1ccccc1)C(C)C |  | fluorescence |  | <0.005 µM
CCOC(=O)COc1ccc(-c2cc(O)c(SCCc3ccccc3)c(=O)o2)cc1 |  |  |  | 0.57 µM
Cc1ccccc1CNC(=O)[C@@H]1CSCN1C(=O)[C@@H](O)[C@H](Cc1ccccc1)NC(=O)C(C)C(C)C(=O)O | IIIB |  |  | <5 µM
CC(C)(C)OC(=O)N[C@@H](Cc1ccccc1)[C@H](O)CNC[C@@H](O)[C@H](Cc1ccccc1)NC(=O)[C@H](O)C(C)(C)C |  | HPLC | pH 5.5 | <10 µM
CC(C)[C@H](NC(=O)Cc1ccccn1)C(=O)N[C@@H](Cc1ccccc1)[C@@H](O)[C@H](O)[C@H](Cc1ccccc1)NC(=O)[C@@H](NC(=O)Cc1ccccn1)C(C)C |  | fluorescence |  | <0.005 µM
CO[C@@H]1C=C2C3CC[C@H]([C@H](C)/C=C/C(C)C(C)C)[C@@]3(C)CCC2[C@@]2(C)CC[C@H](O)C[C@]12O |  |  |  | >1000 µM
CC(C)(C)[C@H](NC(=O)OCc1ccccc1)C(=O)N[C@@H](Cc1ccccc1)C(=O)C(F)(F)CCc1ccccc1 |  |  |  | 0.0027 µM
O=[N+]([O-])[O][Pb][O][N+](=O)[O-] | SF2 | fluorescence |  | 18 µM
CC(C)(C)OC(=O)N[C@H]1C(=O)N(Cc2ccccc2)C[C@@H](O)[C@@H](O)[C@@H]1c1ccccc1 |  | fluorescence |  | 75 µM
N[C@@H](Cc1ccccc1)C(O)[C@@H](N)Cc1ccccc1 |  | fluorescence |  | <50 µM
Cc1cn([C@H]2C[C@H](N=[N+]=[N-])[C@@H](COC(=O)CCC(=O)N[C@@H](Cc3ccccc3)[C@H](O)C(=O)N3CSC[C@H]3C(=O)NC(C)(C)C)O2)c(=O)[nH]c1=O | IIIB |  |  | >5 µM
CC(C)[C@H](N)C(=O)N[C@@H](Cc1ccccc1)[C@H](O)CNC[C@@H](O)[C@H](Cc1ccccc1)NC(=O)OC(C)(C)C |  | HPLC | pH 5.5 | ~10 µM
CCCCCC1(c2ccccc2)CC(O)=C(SCCc2ccccc2)C(=O)O1 |  |  |  | 0.084 µM
CC(C)[C@H](NC(=O)CCc1c[nH]c2ccccc12)C(=O)N[C@@H](Cc1ccccc1)[C@H](O)CNC[C@@H](O)[C@H](Cc1ccccc1)NC(=O)OC(C)(C)C |  | HPLC | pH 5.5 | <10 µM
CC(C)N(CC(=O)N(Cc1ccccc1)CC(O)CN(Cc1ccccc1)C(=O)CN(C(=O)CN(C(=O)OC(C)(C)C)C(C)C)C(C)C)C(=O)CN(C(=O)OC(C)(C)C)C(C)C |  |  |  | 10 µM
Cc1ccccc1CNC(=O)[C@H]1N(C(=O)[C@@H](O)[C@H](Cc2ccccc2)NC(=O)CC(C)(C)C(=O)OC[C@@H]2O[C@H](n3cc(C)c(=O)[nH]c3=O)C[C@H]2N=[N+]=[N-])CSC1(C)C | IIIB |  |  | <5 µM
C[C@H]1[C@H](C)CC[C@]2(C(=O)O)CC[C@]3(C)C(=CC[C@@H]4[C@@]5(C)CC[C@H](O)C(C)(C)[C@@H]5CC[C@]43C)[C@H]12 |  | HPLC |  | 8 µM
CC(C)(C)NC(=O)[C@@H]1CSCN1C(=O)[C@@H](O)[C@H](Cc1ccccc1)NC(=O)CCC(=O)O | IIIB |  |  | <5 µM
COC(=O)N[C@H](C(=O)N[C@@H](Cc1ccccc1)[C@H](O)CNC[C@@H](O)[C@H](Cc1ccccc1)NC(=O)[C@@H](NC(=O)OC)C(C)(C)C)C(C)(C)C |  | HPLC | pH 5.5 | <10 µM

6 of the rows above, restated:

SMILES	strain	read by	conditions	result
CC(C)[C@H](NC(=O)NCc1ccccc1)C(=O)N[C@@H](Cc1ccccc1)C(O)[C@H](Cc1ccccc1)NC(=O)[C@@H](NC(=O)NCc1ccccc1)C(C)C		fluorescence		<0.005 µM
CC(C)(C)[C@H](NC(=O)OCc1ccccc1)C(=O)N[C@@H](Cc1ccccc1)C(=O)C(F)(F)CCc1ccccc1				0.0027 µM
CC(O)C(=O)[O-].CC(O)C(=O)[O-].[Ca+2]	SF2	fluorescence		>1000 µM
[Cl][Fe][Cl]	SF2	fluorescence		>1000 µM
Cc1ccccc1CNC(=O)[C@@H]1CSCN1C(=O)[C@@H](O)[C@H](Cc1ccccc1)NC(=O)CC(C)(C)C(=O)O	IIIB			<5 µM
CCCCCC1(c2ccccc2)CC(O)=C(SCCc2ccccc2)C(=O)O1				0.084 µM